Measured values from several laboratories, pooled; numbers as filed in NIAID ChemDB.

Shared fields: cytotoxicity tests; cells: CEM; read-out: CC50

CCn: concentration that lowers growth or viability of the cells by n%.

compound,read by,value
Nc1nc(Cl)cc(OC[C@H]2O[C@H](COCc3ccccc3)[C@@H](OCc3ccccc3)[C@H]2OCc2ccccc2)n1,-,>250 µM
C/C(=N\NC(=O)CN1c2c(-c3ccccc3)n[nH]c2-c2ccccc2S1(=O)=O)c1ccncc1,MTS,34.5 µM
NC1=C(C2=C(N)C(=O)c3ccccc3C2=O)C(=O)c2ccccc2C1=O,MTT,7.9 µM
CC(=O)NS(=O)(=O)c1ccc(NC(=O)c2ccccc2SSc2ccccc2C(=O)Nc2ccc(S(=O)(=O)NC(C)=O)cc2)cc1,-,42 µM
Cc1cn([C@@H]2O[C@@H]3CN[C@@]4(OCCOc5ccccc5)CS(=O)(=O)O[C@@]34[C@H]2O[Si](C)(C)C(C)(C)C)c(=O)[nH]c1=O,-,10.4 µM
Cc1cc(C)cc(N2C(=O)CCC2(CN)c2c(Cl)cccc2Cl)c1,absorbance,≥100 µM
CC(=O)/C=C(/C)OCCCn1c(=O)c(C)cn([C@@H]2O[C@H](CO[Si](C)(C)C(C)(C)C)C3(OS(=O)(=O)C=C3N)[C@H]2O[Si](C)(C)C(C)(C)C)c1=O,-,≥130 µM
C/C(=N\NC(=O)CN1c2c(-c3ccccc3)n[nH]c2-c2ccccc2S1(=O)=O)c1ccc(Cl)s1,MTS,8.4 µM
COc1ccc2nc(Cl)c(/C=C/C(=O)c3sccc3Br)cc2c1,MTS,8.3 µM
C/C(=N\NC(=O)CN1c2c(-c3ccccc3)n[nH]c2-c2ccccc2S1(=O)=O)c1ccc2c(c1)OCCO2,MTS,23.9 µM
CCc1c(C(=O)c2cc(C)cc(C)c2)n(CCC2=CCCC2)c(=O)[nH]c1=O,-,>1090 µM
COc1ccc2nc(Cl)c(/C=C/C(=O)c3ccsc3)cc2c1,MTS,1.8 µM
CC(C)OC(=O)c1cc(NC(=S)c2cccs2)ccc1Cl,-,4.9 µg/mL
COc1cc(OC[C@H]2CC[C@@H](COCc3ccccc3)O2)ncn1,-,50 µM
Cc1ccc2nc(Cl)c(/C=C/C(=O)c3ccc(Br)s3)cc2c1,MTS,31.6 µM
O=C(Nc1ccc([N+](=O)[O-])cc1)c1ccccc1SSc1ccccc1C(=O)Nc1ccc([N+](=O)[O-])cc1,-,14 µM
C=C(Cl)COc1cc(NC(=S)c2ccsc2C)ccc1C#N,-,3.3 µg/mL
Cc1cn([C@@H]2O[C@@H]3CN[C@@]4(O[Si](C)(C)C(C)(C)C)CS(=O)(=O)O[C@@]34[C@H]2O[Si](C)(C)C(C)(C)C)c(=O)[nH]c1=O,-,7.04 µM
Cc1cc(C)cc(Sc2c(C(C)C)c(=O)[nH]c(=O)n2CC2CC=CC2)c1,-,>20 µM
Cc1cn([C@@H]2O[C@H](CO[Si](C)(C)C(C)(C)C)C3(OS(=O)(=O)C=C3N)[C@H]2O[Si](C)(C)C(C)(C)C)c(=O)n(CCCCCCO/C(=C/C(=O)c2ccccc2)c2ccccc2)c1=O,-,>100 µM
Cc1cn([C@@H]2O[C@@H]3CN[C@@]4(OCc5ccccc5)CS(=O)(=O)O[C@@]34[C@H]2O[Si](C)(C)C(C)(C)C)c(=O)[nH]c1=O,-,20.4 µM
CC(C)(C)NC(=O)[C@@H]1CN(Cc2cccnc2)CCN1C[C@H](C[C@@H](Cc1ccccc1)C(=O)N[C@H]1c2ccccc2C[C@H]1O)OC(=O)COc1ccc(C[C@H](N)C(=O)O)cc1,MTT,>100 µM
C[C@H](Cn1cnc2c(N)ncnc21)OCP(=O)(O)O,-,>250 µM
COc1ccc2nc(Cl)c(/C=C/C(=O)c3ccc(C)o3)cc2c1,MTS,15.7 µM
Cc1occc1C(=S)Nc1ccc(Cl)c(C(=O)OC(C(C)C)C(C)C)c1,-,3.7 µg/mL
Cc1ccc(N2C(=O)CCC2(CN)c2ccc(OCc3ccccc3)cc2)cc1,absorbance,33.7 µM
Cc1occc1C(=S)Nc1ccc(Cl)c(C(=O)OCC2CC2)c1,-,6.7 µg/mL
O=C(c1c(O)cc(O)cc1O)c1c(-c2ccc(O)cc2)oc2cc(O)c3c(c12)O[C@H](c1ccc(O)cc1)[C@@H](O)C3,-,111–147 µM
Cc1cn([C@@H]2O[C@@H]3CN[C@@]4(OCC(C)C)CS(=O)(=O)O[C@@]34[C@H]2O)c(=O)[nH]c1=O,-,>250 µM
CC(=O)/C=C(\C)OCCCCCCCCn1c(=O)c(C)cn([C@@H]2O[C@H](CO[Si](C)(C)C(C)(C)C)C3(OS(=O)(=O)C=C3N)[C@H]2O[Si](C)(C)C(C)(C)C)c1=O,-,49 µM
CCCCCCCC/C=C\CCCCCCCC(=O)OCC(COC(=O)CCCCCCC/C=C\CCCCCCCC)OC(=O)CCC(=O)O[C@@H](C[C@@H](Cc1ccccc1)C(=O)N[C@H]1c2ccccc2C[C@H]1OC(=O)CCC(=O)OC(COC(=O)CCCCCCC/C=C\CCCCCCCC)COC(=O)CCCCCCC/C=C\CCCCCCCC)CN1CCN(Cc2cccnc2)C[C@H]1C(=O)NC(C)(C)C,MTT,>100 µM
Cc1ccc2nc(Cl)c(/C=C/C(=O)c3sccc3Br)cc2c1,MTS,31.6 µM
Nc1nc(N)nc(OC[C@H]2CC[C@@H](COc3nc(N)nc(N)n3)O2)n1,-,>50 µM
CCc1c(Oc2cc(C)cc(C)c2)n(CCC2CC=CC2)c(=O)[nH]c1=O,-,>1120 µM
O=C(Nc1ccc(F)cc1)c1ccccc1SSc1ccccc1C(=O)Nc1ccc(F)cc1,-,14 µM
COc1ccc2c(c1)C(=O)C(C1=C(O)c3ccccc3C(=O)C1=O)=C(I)C2=O,MTT,9.8 µM
CC(C)C(N)C(=O)O[C@H](CN1C[C@H]2CCCC[C@H]2C[C@H]1C(=O)NC(C)(C)C)[C@H](Cc1ccccc1)NC(=O)[C@H](CC(N)=O)NC(=O)c1ccc2ccccc2n1,MTT,>100 µM
CC(C)OC(=O)c1cc(NC(=O)c2ccccc2)ccc1Cl,-,6.2 µg/mL
O=C(NC1CC1)c1ccccc1SSc1ccccc1C(=O)NC1CC1,-,90 µM
Cc1ccc(NC(C#N)c2ccccc2OCc2ccccc2)cc1,absorbance,3.8 µM
CCc1c(Oc2cc(C)cc(C)c2)n(CC2CC=CC2)c(=O)[nH]c1=O,-,>60 µM
C=CCOc1cc(NC(=S)c2sccc2C)ccc1Cl,-,5.3 µg/mL
Cc1cn([C@@H]2O[C@@H]3CN[C@@]4(OCC5CCOC5)CS(=O)(=O)O[C@@]34[C@H]2O)c(=O)[nH]c1=O,-,>250 µM
CCc1c(C(=O)c2cc(C)cc(C)c2)n(CCC2CC=CC2)c(=O)[nH]c1=O,-,76.5 µM
COc1ccc2c(c1)C(=O)C(Br)=C(C1=C(O)c3ccccc3C(=O)C1=O)C2=O,MTT,5.7 µM
Nc1ccnc(OC[C@H]2CC[C@@H](CO)O2)n1,-,>250 µM
Nc1ccn([C@H]2C[C@@H](CO)[C@H](O)[C@@H]2O)c(=O)n1,-,>100 µM
CCCCCCCC/C=C\CCCCCCCC(=O)OCC(COC(=O)CCCCCCC/C=C\CCCCCCCC)OC(=O)CCC(=O)O[C@@H]1Cc2ccccc2[C@@H]1NC(=O)[C@H](Cc1ccccc1)C[C@H](O)CN1CCN(Cc2cccnc2)C[C@H]1C(=O)NC(C)(C)C,MTT,>100 µM
Cc1ccccc1C(=O)Nc1ccc(Cl)c(C(=O)OC2CCCCC2)c1,-,5.2 µg/mL
CCc1c(C(=O)c2cc(C)cc(C)c2)n(CCC2CCCC2)c(=O)[nH]c1=O,-,18.7 µM
Nc1ccc(NC(=O)c2ccccc2SSc2ccccc2C(=O)Nc2ccc(N)cc2)cc1,-,8 µM
CCc1c(C(=O)c2cc(C)cc(C)c2)n(Cc2ccccc2)c(=O)[nH]c1=O,-,1100 µM
C=C(C)COC(=O)c1cc(NC(=O)c2ccoc2C)ccc1Cl,-,3.7 µg/mL
COc1ccc2c(c1)C(O)=C(C1=C(I)C(=O)c3ccccc3C1=O)C(=O)C2=O,MTT,6 µM
CCO[C@]12CS(=O)(=O)O[C@@]13[C@@H](CN2)O[C@@H](n1cc(C)c(=O)[nH]c1=O)[C@@H]3O[Si](C)(C)CCC(C)(C)C,-,27 µM
COc1ccc2nc(Cl)c(/C=C/C(=O)c3ccc4c(c3)OCCO4)cc2c1,MTS,31.6 µM
C/C=C/CSc1cc(NC(=S)c2ccsc2C)ccc1Cl,-,5.1 µg/mL
N#CC1(c2ccc(OCc3ccccc3)cc2)CCC(=O)N1Cc1ccccc1,absorbance,7 µM
CC(C)O/N=C/c1cc(NC(=S)c2ccccc2)ccc1Cl,-,9 µg/mL
Nc1cc(OC[C@@H]2O[C@H](CO)[C@@H](O)[C@H]2O)nc(N)n1,-,>250 µM
COc1ccc2c(c1)C(=O)C(Cl)=C(C1=C(N)C(=O)c3ccccc3C1=O)C2=O,MTT,3.6 µM
Cc1ccsc1C(=S)Nc1ccc(Cl)c(C(=O)OC(C)C)c1,-,5.2 µg/mL
CCCCCCCCCCCCCCCC(=O)OCC(COC(=O)CCCCCCCCCCCCCCC)OC(=O)CCC(=O)O[C@@H](C[C@@H](Cc1ccccc1)C(=O)N[C@H]1c2ccccc2C[C@H]1OC(=O)CCC(=O)OC(COC(=O)CCCCCCCCCCCCCCC)COC(=O)CCCCCCCCCCCCCCC)CN1CCN(Cc2cccnc2)C[C@H]1C(=O)NC(C)(C)C,MTT,>100 µM
CC(C)C(OC(=O)c1cc(NC(=S)c2cccn2C)ccc1Cl)C(C)C,-,>100 µg/mL
CC(=O)C(CCCCCCCn1c(=O)c(C)cn([C@@H]2O[C@H](CO[Si](C)(C)C(C)(C)C)C3(OS(=O)(=O)C=C3N)[C@H]2O[Si](C)(C)C(C)(C)C)c1=O)C(C)=O,-,>250 µM
Cc1sccc1C(=S)Nc1ccc(Cl)c(OCC2CCCC2)c1,-,4.3 µg/mL
CC[C@@H](C)[C@@H](NC(=O)c1ccccc1SSc1ccccc1C(=O)N[C@@H](C(=O)O)[C@H](C)CC)C(=O)O,-,113 µM
C/C=C/CSc1cc(NC(=O)c2ccsc2C)ccc1Cl,-,4.8 µg/mL
Cc1cc(C)cc(Oc2c(C(C)C)c(=O)[nH]c(=O)n2CC2CC2)c1,-,27.4 µM
Cc1sccc1C(=S)Nc1ccc(Cl)c(C(=O)OC(C(C)C)C(C)C)c1,-,6 µg/mL
COc1cc(OC[C@H]2CC[C@@H](COCc3ccccc3)O2)nc(N)n1,-,52 µM
Cc1ccoc1C(=S)Nc1ccc(Cl)c(C(=O)OC(C)C)c1,-,15 µg/mL
Cc1ccc2nc(Cl)c(/C=C/C(=O)c3ccsc3)cc2c1,MTS,3.2 µM
Nc1ccccc1C(=O)Nc1ccc(S(N)(=O)=O)cc1,-,>100 µM
Cc1occc1C(=S)Nc1ccc(Cl)c(/C=N/OC(C)(C)C)c1,-,5.8 µg/mL

8 of the rows above, restated:

compound	read by	value
Nc1cc(OC[C@@H]2O[C@H](CO)[C@@H](O)[C@H]2O)nc(N)n1	-	>250 µM
C/C(=N\NC(=O)CN1c2c(-c3ccccc3)n[nH]c2-c2ccccc2S1(=O)=O)c1ccncc1	MTS	34.5 µM
CC(C)OC(=O)c1cc(NC(=O)c2ccccc2)ccc1Cl	-	6.2 µg/mL
Nc1ccnc(OC[C@H]2CC[C@@H](CO)O2)n1	-	>250 µM
COc1ccc2c(c1)C(=O)C(Cl)=C(C1=C(N)C(=O)c3ccccc3C1=O)C2=O	MTT	3.6 µM
C=CCOc1cc(NC(=S)c2sccc2C)ccc1Cl	-	5.3 µg/mL
C/C(=N\NC(=O)CN1c2c(-c3ccccc3)n[nH]c2-c2ccccc2S1(=O)=O)c1ccc(Cl)s1	MTS	8.4 µM
NC1=C(C2=C(N)C(=O)c3ccccc3C2=O)C(=O)c2ccccc2C1=O	MTT	7.9 µM

Lines come from different laboratories, so protocols vary. a–b is a range or a potency band. An empty or dashed field is not shown.